Measured values from several laboratories, pooled; numbers as filed in NIAID ChemDB.

All rows: tests in culture; agent: Mycobacterium tuberculosis

a–b is a range or a potency band. ECn is the concentration giving n% inhibition of infection, replication or growth. MIC50, MIC90 and the like: level of inhibition, or share of isolates inhibited. Lines come from different laboratories, so protocols vary. An empty or dashed field is not shown. Inhibition is in % at the dose shown (toxicity tests: loss of growth or viability). MIC bound: limit read from a one-dose screen.

structure | dose | cells | strain or isolate | changes | method | measure | result
NC1[C@H]2CN(c3nc4c(cc3F)c(=O)c(C(=O)O)cn4-c3ccc(F)cc3F)C[C@@H]12 |  |  | 44 isolates (resistant) |  |  | Mean MIC | 34.6 µg/mL
CC1=NN(C(=O)c2ccncc2)C(=O)C1N=Nc1ccc(S(=O)(=O)Nc2ccccn2)cc1 |  |  | H37Rv |  | BACTEC | MIC bound | >12.8 µg/mL
CO[C@H]1/C=C/O[C@@]2(C)Oc3c(C)c(O)c4c(O)c(c(/C=N/N5CCN(C)CC5)c(O)c4c3C2=O)NC(=O)/C(C)=C\C=C\[C@H](C)[C@H](O)[C@@H](C)[C@@H](O)[C@@H](C)[C@H](OC(C)=O)[C@@H]1C |  |  | H37Rv |  | broth dilution / visual reading | MIC | 0.008 µg/mL
CO[C@H]1/C=C/O[C@@]2(C)Oc3c(C)c(O)c4c(O)c(c(/C=N/N5CCN(C)CC5)c(O)c4c3C2=O)NC(=O)/C(C)=C\C=C\[C@H](C)[C@H](O)[C@@H](C)[C@@H](O)[C@@H](C)[C@H](OC(C)=O)[C@@H]1C |  |  | 22 isolates (rifampicin isoniazid-susceptible) |  |  | MIC50 | ≤0.03 µg/mL
COc1ccc2c(c1)[n+]([O-])c(C(N)=O)c(N)[n+]2[O-] |  |  | ETA-R |  |  | MIC | 3.1 µg/mL
Cc1ccc(-c2cn(CC(O)COc3ccc4c(c3)OC3(CCN(C(=O)OC(C)(C)C)CC3)CC4=O)nn2)cc1 |  |  | H37Rv |  | agar | MIC | 6.25 µg/mL
CO[C@H]1/C=C/O[C@@]2(C)Oc3c(C)c(O)c4c(O)c(c(/C=N/NC(N)=O)c(O)c4c3C2=O)NC(=O)/C(C)=C\C=C\[C@H](C)[C@H](O)[C@@H](C)[C@@H](O)[C@@H](C)[C@H](OC(C)=O)[C@@H]1C |  |  | H37Rv |  |  | EC50 | 5 µg/mL
Cc1c(Cl)c(=O)oc2cc(OCc3ccc(Br)cc3)ccc12 | 50 µM |  | H37Rv |  | fluorescence | inhibition | 3.89%
NNC(=O)c1cc(C2CCCC2)c2cccc(C3CCCC3)c2n1 |  |  | H37Ra |  | BACTEC | MIC | 6.25 µg/mL
Cc1csc([C@](C)(O)c2nnc(Nc3ccn(Cc4c(F)cccc4F)n3)s2)n1 |  |  | M103L |  |  | MIC | >25 µg/mL
NC[C@H]1O[C@H](O[C@H]2[C@H](O)[C@@H](O[C@H]3O[C@H](CO)[C@@H](O)[C@H](N)[C@H]3O)[C@H](N)C[C@@H]2N)[C@H](O)[C@@H](O)[C@@H]1O | 2.5 µg/mL |  | 72 strains |  | BACTEC | inhibition | 50%
CC1=NN(CC(=O)N/N=C/c2ccc(-c3ccc(C=O)o3)cc2)C(=O)CC1 |  |  |  |  | agar | MIC | >25 µM
O=C1CC2(CCCCC2)Oc2cc(OCC(O)Cn3cc(-c4ccccc4)nn3)ccc21 |  |  | H37Rv |  | agar | MIC | 6.25 µg/mL
CO[C@H]1/C=C/O[C@@]2(C)Oc3c(C)c(O)c4c(O)c(c(/C=N/N=C(N)N)c(O)c4c3C2=O)NC(=O)/C(C)=C\C=C\[C@H](C)[C@H](O)[C@@H](C)[C@@H](O)[C@@H](C)[C@H](OC(C)=O)[C@@H]1C |  |  | H37Rv |  |  | EC50 | 5 µg/mL
COc1ccc(-n2c(O)c(/C=C3\C=CC=N3)c(=O)[nH]c2=O)cc1 |  |  | H37Rv |  | visual reading | MIC | 16 µg/mL
CCCSc1ccc(/C=C/C(N)=S)cc1 |  |  | H37Rv |  |  | MIC | 84 µM
O=C(O)c1cnccn1 |  |  | M6733 |  |  | MIC | 240 µg/mL
CCOC(=O)c1cc(C(=O)c2ccccc2[N+](=O)[O-])n2c1c(Br)cc1ccccc12 |  |  |  | MDR | resazurin | MIC | 8 µg/mL
Cc1c(C#N)c(=O)oc2cc(OCc3ccccc3)ccc12 | 1 µM |  | H37Rv |  | fluorescence | inhibition | 1.72%
O=C(NN=C1CCCCC1)c1ccncc1 |  |  | Ethambutol-resistant |  |  | MIC | 0.05 µg/mL
CN(C)CC=C(c1ccccc1)c1ccc(-c2ccc(Br)cc2)cc1 |  |  | ALI 3236 |  |  | MIC | 20 µg/mL
CCC1(O)CC2C3C(C(=O)OC)=C4Nc5ccccc5C45CCN(C31)C25.CCC1(O)CC2C3C(C(=O)OC)=C4Nc5ccccc5C45CCN(C31)C25 | 12.5 µg/mL |  | H37Rv |  | BACTEC | inhibition | -10%
CCSc1ccc(C(=S)NC)cc1 |  |  | H37Rv |  |  | MIC | >378 µM
CN(C)CC=C(c1ccc(Br)cc1)c1ccc(-c2ccc(Br)cc2)cc1 |  |  | ALI 536 |  |  | MIC | ≤4 µg/mL
O=c1cc(C(F)(F)F)c2ccc(OCc3ccc(Br)cc3)cc2o1 | 1 µM |  | H37Rv |  | fluorescence | inhibition | <0%
CCCCCc1ccc(-c2cn(CC(O)COc3ccc4c(c3)OC3(CCCCC3)CC4=O)nn2)cc1 |  |  | H37Rv |  | agar | MIC | 0.78 µg/mL
COC(=O)c1cccc2c1=CC1=C3N=c4cc(OC)ccc4=C3CCN1C=2.O=S(=O)(O)O | 12.5 µg/mL |  | H37Rv |  | BACTEC | inhibition | -3%
CC(C)(C)OC(=O)N1CCC2(CC1)CC(=O)c1ccc(OCC(O)Cn3cc(-c4ccccc4)nn3)cc1O2 |  |  | H37Rv |  | agar | MIC | 12.5 µg/mL
NNC(=O)c1cc2ccccc2nc1C12CC3CC(CC(C3)C1)C2 | 6.25 µg/mL |  | H37Ra |  | BACTEC | inhibition | 32%
CCCC(C)Sc1ccc(/C=C/C(N)=S)cc1 |  |  | H37Rv |  |  | MIC | 180 µM
NNC(=O)c1ccncc1 |  |  | MTB14 (S) |  |  | MIC | 0.12 µg/mL
CO[C@H]1/C=C/O[C@@]2(C)Oc3c(C)c(O)c4c(O)c(c(/C=N/N5CCN(C)CC5)c(O)c4c3C2=O)NC(=O)/C(C)=C\C=C\[C@H](C)[C@H](O)[C@@H](C)[C@@H](O)[C@@H](C)[C@H](OC(C)=O)[C@@H]1C |  |  | M103L |  |  | MIC | 0.007 µg/mL
COc1ccc(Cc2coc3cc(OC)cc(OC)c3c2=O)cc1 | 12.5 µg/mL |  | H37Rv |  | BACTEC | inhibition | -7%
CN(C)C/C=C(\c1ccc(O)cc1)c1ccc(-c2ccccc2)cc1 |  |  | H37Ra |  |  | MIC | 49 µg/mL
Cc1cc2c(cc1C)NC1=C(N2)OC(c2ccc(Cl)cc2)C1=O | 12.5 µg/mL |  | H37Rv |  | BACTEC | inhibition | -19%
CC[C@H]1OC(=O)[C@H](C)[C@@H](O[C@H]2C[C@@](C)(OC)[C@@H](O)[C@H](C)O2)[C@H](C)[C@@H](O[C@@H]2O[C@H](C)C[C@H](N(C)C)[C@H]2O)[C@](C)(OC)C[C@@H](C)C(=O)[C@H](C)[C@@H](O)[C@]1(C)O |  |  | 22 isolates (rifampicin isoniazid-susceptible) |  |  | MIC90 | 8 µg/mL
COc1cc(N/N=C/c2ccccc2O)ncn1 |  |  | H37Rv |  | visual reading | MIC | 1 µg/mL
C1CCNCC1.S=C(S)N1CCCCC1 |  |  | ETA-R |  |  | MIC | 3.1 µg/mL
CN/N=C/c1c2c(O)c3c(O)c(C)c4c(c3c1O)C(=O)[C@@](C)(O/C=C/[C@H](OC)[C@@H](C)[C@@H](OC(C)=O)[C@H](C)[C@H](O)[C@H](C)[C@@H](O)[C@@H](C)/C=C/C=C(/C)C(=O)N2)O4 |  |  | H37Rv |  |  | EC50 | 5 µg/mL
Cc1cc(=O)oc2cc(OCc3ccc(Br)cc3)ccc12 | 50 µM |  | H37Rv |  | fluorescence | inhibition | 59.14%
CC(=O)N(O)C/C=C/P(=O)(O)O |  |  |  |  | broth dilution | MIC99 | >200 µg/mL
NNC(=O)Cc1cc(C2CCCCC2)nc2ccccc12 |  |  | H37Ra |  | BACTEC | MIC | >6.25 µg/mL
COc1cc(C(O)(c2ccccc2)C2CCCCN2)cc(OC)c1OC | 6.25 µg/mL |  | H37Rv |  | resazurin | inhibition | 22%
CC(C)Sc1ccc(C(N)=S)cc1 |  |  | H37Rv |  |  | MIC | 284 µM
O=C1Nc2ccccc2[C@]12N1CSC[C@H]1[C@H](c1ccc(Cl)cc1)[C@]21Cc2ccccc2C1=O |  |  | H37Rv |  | agar | MIC99 | 52.9 µM
NNC(=O)CNc1cccc(Cl)c1F |  |  | H37Rv |  | BACTEC | MIC bound | >12.5 µg/mL
CCCC(C)Sc1ccc(C(N)=S)cc1 |  |  | H37Rv |  |  | MIC | 334 µM
CCCCCN(C)Cc1cc(C(=O)OCC)ccc1N(CC(OC)OC)C(=O)c1cc2cc(F)cc([N+](=O)[O-])c2[nH]1 |  |  | H37Rv |  | resazurin | MIC | 8 µg/mL
CN(C)C/C=C(\c1ccc(N)cc1)c1ccc(-c2ccc(Br)cc2)cc1 |  |  | ALI 552 |  |  | MIC | 39 µg/mL
O=C(OC1CCN(c2nc(=O)c3cc(C(F)(F)F)cc([N+](=O)[O-])c3s2)CC1)c1ccccc1F |  |  | H37Ra |  | resazurin | MIC90 | 0.004 µM
Cc1cc2nc3ccc(N)cc3oc-2cc1=[N+](C)C |  | VERO | H37Rv |  | BACTEC | MIC | 0.8 µg/mL
CCCCN(CCCC)N=Cc1c2c(O)c3c(O)c(C)c4c(c3c1O)C(=O)[C@@](C)(O/C=C/[C@H](OC)[C@@H](C)[C@@H](OC(C)=O)[C@H](C)[C@H](O)[C@H](C)[C@@H](O)[C@@H](C)/C=C/C=C(/C)C(=O)N2)O4 |  |  | H37Rv |  |  | EC50 | 0.5 µg/mL
CC1COc2c(N3CCN(C)CC3)c(F)cc3c(=O)c(C(=O)O)cn1c23 |  |  | 206 isolates (susceptible) |  |  | Mean MIC | 0.842 µg/mL
COc1ccc(/C=C2/SC(=S)N(N)C2=O)cc1 |  |  | H37Rv |  | visual reading | MIC | 16 µg/mL
O=C1C=C(Nc2cccnc2)c2ccccc2C1=O | 6.25 µg/mL |  | H37Rv |  | resazurin | inhibition | -1%
Cc1cc(O)c(C(=O)/C=C/c2ccccc2)c(=O)o1 |  |  | H37Rv |  | visual reading | MIC | 8 µg/mL
NNC(=O)c1cc(C2CCCCC2)c2c(C3CCCCC3)cccc2n1 | 6.25 µg/mL |  | H37Ra |  | BACTEC | inhibition | 91%
COc1cccc2c1[n+]([O-])c1cccc(O)c1[n+]2[O-] | 128 µg/mL |  | H37Rv |  | BACTEC | inhibition | 100%
Nc1c(Br)cc(Br)cc1CNC1CCC(O)CC1 |  |  | 10 isolates |  |  | MIC | 50–100 µg/mL
CC(=Nc1ccc(Cl)cc1N)c1c(O)cc(C)oc1=O |  |  | H37Rv |  | BACTEC | MIC bound | >12.5 µg/mL
NNC(=O)c1ccncc1 |  |  | H37Rv |  |  | MIC | 0.02 µg/mL
O=C1Nc2ccc(Cl)cc2[C@]12N1CSC[C@H]1[C@H](c1ccc(F)cc1)[C@]21Cc2ccccc2C1=O |  |  | H37Rv |  | agar | MIC99 | 12.7 µM
CCCCCCNC(=O)c1cc(C2C3CC4CC(C3)CC2C4)c2ccccc2n1 | 6.25 µg/mL |  | H37Ra |  | BACTEC | inhibition | 12%
Cc1ccc(-c2cn(CC(O)COc3ccc4c(c3)OC3(CCCCC3)CC4=O)nn2)cc1 |  |  | H37Rv |  | agar | MIC | 3.13 µg/mL
CO[C@H]1/C=C/O[C@@]2(C)Oc3c(C)c(O)c4c(O)c(c(/C=N/N(C)CCN(C)C)c(O)c4c3C2=O)NC(=O)/C(C)=C\C=C\[C@H](C)[C@H](O)[C@@H](C)[C@@H](O)[C@@H](C)[C@H](OC(C)=O)[C@@H]1C |  |  | H37Rv |  |  | EC50 | 0.5 µg/mL
O=NNc1cncc(NN=O)n1 | 12.5 µg/mL |  | H37Rv |  | BACTEC | inhibition | 0%
O=C1Nc2ccccc2[C@]12N1CSC[C@H]1[C@H](c1ccc(F)cc1)[C@]21Cc2ccccc2C1=O |  |  | H37Rv |  | agar | MIC99 | 13.7 µM
N#C/C(=C1C=C/C(=N\O)C=C/1Cl)c1ccccc1 | 12.5 µg/mL |  | H37Rv |  | BACTEC | inhibition | 1%
Cc1c(C#N)c(=O)oc2cc(OCc3ccc(Br)cc3)ccc12 | 50 µM |  | H37Rv |  | fluorescence | inhibition | 55.4%
CCCN1C(=O)CN(S(=O)(=O)c2ccc(Cl)cc2)C1=O |  |  | H37Rv |  | BACTEC | MIC bound | >12.5 µg/mL
O=C1Nc2ccc([N+](=O)[O-])cc2[C@]12N1CSC[C@H]1[C@H](c1ccc(Cl)cc1)[C@]21Cc2ccccc2C1=O |  |  | H37Rv |  | agar | MIC99 | 24.1 µM
NNC(=O)c1ccc(N)cc1O | 12.5 µg/mL |  | H37Rv |  | BACTEC | inhibition | 97%
NNC(=O)c1cc(C2CCCCC2)nc2ccccc12 |  |  | H37Ra |  | BACTEC | MIC | >6.25 µg/mL
CC[C@@]1(O)C[C@H](O[C@H]2C[C@H](N(C)C)[C@H](O)[C@H](C)O2)c2c(cc3c(c2O)C(=O)c2c(O)cccc2C3=O)[C@H]1C(=O)OC |  |  | H37Rv |  | BACTEC | MIC bound | ≤12.5 µg/mL
c1cnc2c(c1)ccc1cccnc12 |  |  | H37Rv |  |  | MIC | 0.8 µg/mL
Nc1nc(N)c2nc3c(ccc4ccccc43)nc2n1 |  |  | H37Rv |  | BACTEC | MIC bound | ≤12.5 µg/mL
C=CCSc1ccc(C(=S)NCC)cc1 |  |  | H37Rv |  |  | MIC | 252 µM
C/C1=C\[C@@H](C)C/C=C/[C@H]2[C@@H]3O[C@]3(C)[C@@H](C)[C@H]3[C@H](Cc4c[nH]c5ccccc45)NC(=O)[C@]32C(=O)/C=C/C(=O)[C@@H]1O |  |  | H37Rv |  | BACTEC | MIC | ≥12.5 µg/mL
CO[C@H]1/C=C/O[C@@]2(C)Oc3c(C)c(O)c4c(O)c(c(/C=N/Nc5ccccc5)c(O)c4c3C2=O)NC(=O)/C(C)=C\C=C\[C@H](C)[C@H](O)[C@@H](C)[C@@H](O)[C@@H](C)[C@H](OC(C)=O)[C@@H]1C |  |  | H37Rv |  |  | EC50 | 2 µg/mL